Reference: the supplement of paper PMC9931576
Human monoclonal antibodies against the spike receptor-binding domain (heavy:light variable regions). IC50 against pseudoviruses bearing the spike of naturally observed variants; lower = stronger; >10 µg/ml means not reached at the top dose. No active / inactive call. The stated detection limit is 0.0005 µg/ml; values near or below 0.001 µg/ml lie at the floor of the assay.

B1: BD58-0469 (protein)
chain 1: EVQLVESGGGLVKPGGSLRLSCAASGFTFSSYTMNWVRQAPGKGLEWVSSISGSRSYIFYADSVKGRFTISRDNAKNSLYLQMNSLRAEDTAVYYCARVRARDTATDYWGQGTLVTVSS
chain 2: QPVLTQPPSASASLGASVTLTCTLSSGYSNYEVDWYQQRPGKGPRFVMRVGTGGIVGSKGDDIPDRFSVLGSGLNRYLTIKNIQEEDESDYHCGADHGSGSNFVWVFGGGTKLTVL
B2: BD58-0498 (protein)
chain 1: EVQLVQSGAEVKKPGESLKISCKDSGNTFTSDWIGWVRQMPGKGLEWMGIIYPDDSDTRYSPSFQGQVTMSVDKSISTAYLQWSSLKASDTAIYYCARHRAPHRIFSGVLDVWGQGTTVTVSS
chain 2: DIQMTQSPSSLSASVRDRVTITCQASQDISNSLNWYQQKPGKAPRLLIYDASILETGVPSRFSGSGSGTDFTLTISSLQLEDVATYYCQHYVSLPFTFGPGTKVDIK
B3: BD58-0497 (protein)
chain 1: QVQLVQSGAEVKKPGASVKVSCKASGYTFTSYDINWVRQATGQGLEWMGWMNPNSGDTGHAQKFQGRVTMTRNTSISTAYMELSSLRSEDTAVYYCARGLGVDYYDDSRGYADYWGQGTLVTVSS
chain 2: QSALTQPRSVSGSPGQSVTISCTGTSSDAGAYNYVSWYQQHPGKAPKLIIYDISKRPSGVPDRFSGSKSGNTASLTISGLQAEDEADYYCCSYGGNYVFGSGTKVTVL
B4: BD56-281 (protein)
chain 1: QVQLQESGPGLVKPSETLSLTCIVSGGSISSYYWSWIRQPPGKGLEWIGYIYYSGSTNYNPSLKSRVTISVDTPKNQFSLKLSSVTAADTAVYYCATTDLYASSMYFDNWGQGTLVTVSS
chain 2: SYELTQPPSVSVSPGQTARITCSGDALPIQYAYWYQQKPGQAPVLVIYKDSERPSGVPERFSGSSSGTTVTLTISGVQAEDEADYYCQSADRSDTPVVFGGGTKLTVL
B5: BD58-0519 (protein)
chain 1: EVQLVESGGGVVQPGGSLRLSCAASGFTFDDYAMHWVRQAPGKGLEWVSLIGGDGGSTYYADSVKGRFTISRDNSRNSLYLQMNSLRSEDTALYYCAKGGHKWELLIAYYYGMDVWGQGTTVTVSS
chain 2: QSALTQPASVSGSPGQSITVSCTGTSSDVGGYNYVSWYQQHPDKAPKLIVYDVSLRPSGVSNRFSGSKSGNTASLTISGLQAEDEADYYCSSYTSSNTPLVFGGGTKLTVL

Tests used:
Assay in all cases: pseudovirus neutralization IC50; higher = weaker neutralization
[1] = molecular target: SARS-CoV-2 Omicron BA.1 spike pseudovirus
Description: (§1)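 Single-round VSV luciferase pseudovirus mixed with antibody dilutions for 1 h and put on Huh-7 cells for about a day; IC50 from the dose curve.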

[2] = molecular target: SARS-CoV-2 Omicron BA.2 spike pseudovirus
Description: as §1

[3] = molecular target: SARS-CoV-2 Omicron BA.2.75 spike pseudovirus
Description: as §1

[4] = molecular target: SARS-CoV-2 Omicron BA.2.75.2 spike pseudovirus
Description: as §1

[5] = molecular target: SARS-CoV-2 Omicron BA.5 spike pseudovirus
Description: as §1

[6] = molecular target: SARS-CoV-2 Omicron BM.1.1.1 spike pseudovirus
Description: as §1

[7] = molecular target: SARS-CoV-2 Omicron BQ.1.1 spike pseudovirus
Description: as §1

[8] = molecular target: SARS-CoV-2 Omicron BR.2 spike pseudovirus
Description: as §1

[9] = molecular target: SARS-CoV-2 Omicron CA.1 spike pseudovirus
Description: as §1

[10] = molecular target: SARS-CoV-2 Omicron XBB spike pseudovirus
Description: as §1

[11] = molecular target: SARS-CoV-2 early D614G spike pseudovirus
Description: as §1

| Binder | pseudovirus neutralization IC50 [1] | pseudovirus neutralization IC50 [2] | pseudovirus neutralization IC50 [3] | pseudovirus neutralization IC50 [4] | pseudovirus neutralization IC50 [5] | pseudovirus neutralization IC50 [6] | pseudovirus neutralization IC50 [7] | pseudovirus neutralization IC50 [8] | pseudovirus neutralization IC50 [9] | pseudovirus neutralization IC50 [10] | pseudovirus neutralization IC50 [11] |
| --- | --- | --- | --- | --- | --- | --- | --- | --- | --- | --- | --- |
| B1 | 0.00573 µg/mL | 0.0271 µg/mL | 0.0141 µg/mL | > 10 µg/mL | > 10 µg/mL | > 10 µg/mL | > 10 µg/mL | > 10 µg/mL | > 10 µg/mL | > 10 µg/mL | > 10 µg/mL |
| B2 | > 10 µg/mL | 0.00218 µg/mL | > 10 µg/mL | > 10 µg/mL | > 10 µg/mL | > 10 µg/mL | > 10 µg/mL | > 10 µg/mL | > 10 µg/mL | > 10 µg/mL | > 10 µg/mL |
| B3 | 0.118 µg/mL | 0.177 µg/mL | 0.328 µg/mL | 0.219 µg/mL | 0.193 µg/mL | 0.405 µg/mL | 0.326 µg/mL | 0.208 µg/mL | 0.216 µg/mL | 0.16 µg/mL | > 10 µg/mL |
| B4 | 0.000836 µg/mL | 0.00258 µg/mL | 0.00709 µg/mL | 0.00254 µg/mL | 0.00357 µg/mL | 0.00283 µg/mL | 0.0121 µg/mL | 0.00199 µg/mL | 0.0023 µg/mL | > 10 µg/mL | > 10 µg/mL |
| B5 | 0.549 µg/mL | 0.00185 µg/mL | 0.191 µg/mL | 0.327 µg/mL | > 10 µg/mL | > 10 µg/mL | > 10 µg/mL | > 10 µg/mL | > 10 µg/mL | > 10 µg/mL | > 10 µg/mL |
